This passage reports SI results from publication PMC5786798, “Discovery of New Inhibitors of Toxoplasma gondii via the Pathogen Box” (Antimicrobial Agents and Chemotherapy, 2018).

SMILES strings stand for the structures. Where “and” joins values, the source holds several entries; their conditions need not be identical. Equal entries are not always repeated.

This data set has as its system T. gondii tachyzoites (RH strain, type I). Description: Determination of IC50s, in vitro chemosensitivity of T. gondii (ELISA, 72 h). The conditions noted are these: CC50 Vero cells/IC50 T. gondii ratio.

Turning to `O=C(Nc1ccc(N2CCNCC2)cc1)c1ccn2ncc(-c3cccc(Cl)c3)c2n1` [MMV022478], the SI is > 4 and 7.7. For the molecule `O=C(Nc1nc(-c2ccccn2)cs1)c1cncn1-c1ccccc1` [MMV676512], the SI was > 4 and 4.2. `CNC(=O)c1nn(C)c2c1C(C)(C)Cc1cnc(Nc3ccc(N4CCN(C)CC4)cc3)nc1-2` [MMV676602]: the SI is > 4 and 4.1. For `CCc1nc(N)nc(N)c1-c1ccc(Cl)cc1` [PYR, pyrimethamine, reference compound] the value was 9.0.
